Measured values: US10703743B2 (priority 2010, dated 2020)

Experiments:
MT-2 = MT-2 activity; assay type: cell-based; details: read-out: MT-2 (activity)
gp120-CD4 interaction = gp120-CD4 interaction (Human immunodeficiency virus type 1 group M subtype B, UniProt P03375); details: read-out: CD4 (activity)

SMILES: COc1ccc(-c2ccc(CNC(=O)COCCOCCOCCOCCOCCOCCn3cc(COCCOCCOCCOCCNc4ccc([N+](=O)[O-])cc4[N+](=O)[O-])nn3)o2)c2[nH]cc(C(=O)C(=O)N3CCN(C(=O)c4ccccc4)CC3)c12 [C5-furan]
- IC50 (MT-2): 10 nM
- IC50 (gp120-CD4 interaction): 290 nM
